Compound potency records, mixed from different reports. Data source: NIAID ChemDB in PubChem.

Common to all: toxicity to cultured cells; cells: VERO; measure: CC50

Two numbers with a dash give a range or band.

SMILES,read by,result
Clc1ccc(/C(Cn2ccnc2)=N/OC/C=C/c2ccccc2)c(Cl)c1,-,1.5 µg/mL
Cc1ccc(CNC(=O)c2c(C)n([O-])c3ccccc3[n+]2=O)cc1,-,>40 µg/mL
Nc1ccn([C@H]2O[C@@H](CO)C=C2F)c(=O)n1,-,>100 µM
Cc1cn2c(C(=O)NCc3ccc(S(F)(F)(F)(F)F)cc3)c(C)nc2s1,-,>32 µM
CC(O)c1cn([C@H]2C[C@H](O)[C@@H](CO)S2)c(=O)[nH]c1=O,-,>500 µM
Nc1nccc2c1ncn2[C@@H]1O[C@H](CSCCC(N)C(=O)O)C[C@H]1O,-,400 µg/mL
Cc1ccn2c(C(=O)NCc3ccc(N4CCN(c5ccc(C(F)(F)F)cn5)CC4)c(F)c3)c(C)nc2c1,-,>32 µM
Nc1ncnc2c1ncn2C1CC(CO)[C@@H](O)[C@H]1O,-,4 µg/mL
CC(=O)c1c(C)n([O-])c2ccccc2[n+]1=O,-,>62.5 µg/mL
CNC(=S)Nc1ccc(-c2n[nH]c(=S)n2C)cc1,-,<0.371 µg/mL
O=C(N/N=C/c1cccc2ccccc12)c1ccc(Oc2ccccc2)cc1,MTT,72.2 µg/mL
Nc1nc(=O)n([C@H]2O[C@@H](CO)C=C2F)cc1F,-,>100 µM
C(=C\c1ccccc1)/CO/N=C(/Cn1ccnc1)c1ccccc1,-,12 µg/mL
CC(C)(C)C(=O)OCn1nc([C@@H]2O[C@H](CO)C[C@H]2O)c2ncnc(N)c21,-,200 µg/mL
Clc1ccc(-c2nnc3sc(COc4ccc(Br)cc4)nn23)cc1,resazurin,92.31 µM
CCc1ccccc1NC(=O)c1c(C)n([O-])c2cc(Cl)c(Cl)cc2[n+]1=O,-,>30 µg/mL
CC(=O)OC[C@H]1O[C@H](O[C@H]2O[C@@H](COC(=O)/C=C/c3ccccc3)[C@H](O)C2(COC(C)=O)OC(=O)/C=C/c2ccccc2)[C@H](OC(C)=O)[C@@H](O)[C@@H]1OC(C)=O,-,>100 µg/mL
COc1ccc([C@H]2[C@@H]3CSCN3[C@@]3(C(=O)N(N4CCOCC4)c4ccccc43)[C@@]23Cc2cc(OC)c(OC)cc2C3=O)cc1OC,MTT,>62.5 µg/mL
c1ccc(Oc2ccc(-c3nnco3)cc2)cc1,MTT,99.4 µg/mL
Fc1ccc(/C(Cn2ccnc2)=N\OCc2cccc3ccccc23)cc1,-,6 µg/mL
CCCCOC(=O)C(N)CCSC[C@H]1O[C@@H](n2ccc3c(N)ncnc32)[C@H](O)[C@@H]1O,-,400 µg/mL
Nc1ccn(C[C@@H](CO)OCP(=O)(O)O)c(=O)n1,-,92 µg/mL
O=c1ccn([C@H]2O[C@@H](CO)C=C2F)c(=O)[nH]1,-,>100 µM
COc1c(N2CCNC(C)C2)c(F)cc2c(=O)c(C(=O)O)cn(C3CC3)c12,-,>155.3 µM
Cc1cn([C@@H]2C[C@H](O)[C@@H](CO)S2)c(=O)[nH]c1=O,-,>100 µM
CCc1nc2ccc(Cl)cn2c1C(=O)NCc1ccc(N2CCC(c3ccc(OC(F)(F)F)cc3)CC2)cc1,-,>32 µM
Cc1c(C(=O)NCc2ccc(Br)cc2)[n+](=O)c2cc(Cl)ccc2n1[O-],-,>40 µg/mL
CCCc1cn([C@H]2C[C@H](O)[C@@H](CO)S2)c(=O)[nH]c1=O,-,>100 µM
COc1ccc([C@H]2[C@@H]3CSCN3[C@@]3(C(=O)Nc4ccc(OC(F)(F)F)cc43)[C@@]23Cc2cc(OC)c(OC)cc2C3=O)cc1OC,MTT,>62.5 µg/mL
c1c[nH]c2cc3ncnc3cc2c1,MTT,>100 µM
Cc1c(C(=O)c2ccccc2)[n+](=O)c2cc(Cl)c(Cl)cc2n1[O-],-,3.3 µg/mL
Nc1ncnc2c([C@@H]3O[C@H](CSCCC(N)C(=O)O)C[C@H]3O)[nH]nc12,-,40 µg/mL
Nc1ncnc2c1ncn2[C@@H]1O[C@@H](CO)C=C1F,-,>100 µM
CCCOC(=O)C(CCSC[C@H]1O[C@@H](n2ccc3c(N)ncnc32)[C@H](O)[C@@H]1O)NC(C)=O,-,40 µg/mL
Fc1ccc(-c2nnc3sc(COc4ccccc4)nn23)cc1,resazurin,23.17 µM
Cc1c(N2CCC3(CC2)OCCO3)c([N+](=O)[O-])cc2c(=O)c(C(=O)O)cn(C3CC3)c12,-,146 µM
COc1cc2c(cc1OC)C(=O)[C@]1(C2)[C@@H](c2ccccc2)[C@@H]2CSCN2[C@@]12C(=O)Nc1ccc(OC(F)(F)F)cc12,MTT,>62.5 µg/mL
Nc1ncnc2c1ncn2[C@@H]1C[C@H](CO)[C@@H](O)[C@H]1O,-,4 µg/mL
CCn1cc(C(=O)O)c(=O)c2cc(F)c(N3CCN(C(=O)Cc4ccccc4Nc4c(Cl)cccc4Cl)CC3)cc21,-,>16.73 µM
CCc1nc2ccc(Cl)cn2c1C(=O)NCc1ccc(N2CCCN(c3ccc(S(F)(F)(F)(F)F)cc3)CC2)c(F)c1,-,>32 µM
Clc1ccc(/C(Cn2ccnc2)=N\OCc2cccc3ccccc23)cc1,-,12 µg/mL
O=c1[nH]c(=O)n([C@H]2C[C@H](O)[C@@H](CO)S2)cc1C(F)(F)F,-,139 µM
CCOC(=O)C1=C(C)NC(=S)NC1c1cn(-c2ccccc2)nc1-c1ccc([N+](=O)[O-])cc1,-,>10 µg/mL
O=[N+]([O-])c1ccc(OCc2nn3c(Cc4ccc5ccccc5c4)nnc3s2)cc1,resazurin,79.26 µM
Nc1ncnc2c1CCN2[C@@H]1O[C@H](CO)C[C@H]1O,-,40 µg/mL
COc1c(N2CCN(C(=O)Cc3ccccc3Nc3c(Cl)cccc3Cl)C(C)C2)c(F)cc2c(=O)c(C(=O)O)cn(C3CC3)c12,-,>15.3 µM
COc1ccc(OCc2nn3c(-c4ccc(Br)cc4)nnc3s2)cc1,resazurin,64.22 µM
CCc1nc2cc(C)ccn2c1C(=O)NCc1cccc(S(F)(F)(F)(F)F)c1,-,>32 µM
Nc1ncnc2c1ncn2C[C@H](O)CO,-,>400 µg/mL
O=C(O)c1cn(C2CC2)c2cc(N3CCN(C(=O)Cc4ccccc4Nc4c(Cl)cccc4Cl)CC3)c(F)cc2c1=O,-,>16.4 µM
c1ccc(-c2ccc(-c3nc4cc5ncccc5cc4[nH]3)cc2)cc1,MTT,>80 µM
O=c1[nH]c(=O)n([C@H]2C[C@H](O)[C@@H](CO)S2)cc1/C=C/Br,-,>500 µM
Clc1ccc(/C(Cn2ccnc2)=N\OCc2cccc3ccccc23)c(Cl)c1,-,12 µg/mL
Nc1nc2c(ncn2[C@H]2S[C@@H](CO)C=C2F)c(=O)[nH]1,-,>66.4 µM
Cc1c(C(=O)c2ccccc2)[n+](=O)c2cc(Cl)ccc2n1[O-],-,14.68 µg/mL
Cc1cn([C@@H]2O[C@@H](CO)C=C2F)c(=O)[nH]c1=O,-,>100 µM
CCOC(=O)C1=C(C)NC(N)=NC1c1cn(-c2ccccc2)nc1-c1ccc(Cl)cc1,-,>10 µg/mL
N#Cc1cn([C@H]2C[C@H](O)[C@@H](CO)S2)c(=O)[nH]c1=O,-,>500 µM
COC(=O)C1=C(C)NC(=S)NC1c1cn(-c2ccccc2)nc1-c1ccc([N+](=O)[O-])cc1,-,9.6 µg/mL
Cc1c(N2CCn3cc(C(=O)O)nc3C2)c([N+](=O)[O-])cc2c(=O)c(C(=O)O)cn(C3CC3)c12,-,138 µM
O=C(Cc1ccccc1Nc1c(Cl)cccc1Cl)N/N=C/c1ccc([N+](=O)[O-])cc1,-,>22.62 µM
c1ccc(/C(Cn2ccnc2)=N\OCc2cccc3ccccc23)cc1,-,12 µg/mL
Cc1c(C(=O)NCc2ccc(Br)cc2)[n+](=O)c2cc(Cl)c(Cl)cc2n1[O-],-,>40 µg/mL
c1ccc(Oc2ccc(-c3nnc(-c4ccncc4)o3)cc2)cc1,MTT,95.5 µg/mL
Cc1cn2c(C(=O)NCc3ccc(N4CCN(c5ccc(S(F)(F)(F)(F)F)cc5)CC4)cc3)c(C)nc2s1,-,2–10 µM
Nc1ncnc2c1ncn2C1OC(CO)C=C1F,-,>100 µM
COc1cc2c(cc1OC)C(=O)[C@]1(C2)[C@@H](c2ccccc2Cl)[C@@H]2CSCN2[C@@]12C(=O)N(N1CCOCC1)c1ccccc12,MTT,>62.5 µg/mL
Cc1c(N2CCSCC2)c([N+](=O)[O-])cc2c(=O)c(C(=O)O)cn(C3CC3)c12,-,160 µM
O=C(Cn1nnc2cc3cccnc3c(Cl)c21)Cn1nnc2cc3cccnc3c(Cl)c21,MTT,>100 µM
C(=C\c1ccccc1)/CO/N=C(\Cn1ccnc1)c1ccccc1,-,6 µg/mL
COC(=O)C1=C(C)NC(=O)NC1c1cn(-c2ccccc2)nc1-c1ccc(Br)cc1,-,>10 µg/mL
Cc1c(C(=O)NCc2ccc(C(F)(F)F)cc2)[n+](=O)c2cc(Cl)ccc2n1[O-],-,>40 µg/mL
Cc1ccc2nc(C)c(C(=O)NCc3ccc4c(c3)CCO4)n2c1,-,>32 µM
CC(=O)c1c(C)n([O-])c2cc(Cl)c(Cl)cc2[n+]1=O,-,3.3 µg/mL
Cc1ccn2c(C(=O)NCc3ccc(N4CCC(Oc5cccc(C(F)(F)F)c5)CC4)c(F)c3)c(C)nc2c1,-,>32 µM
Fc1ccc(/C(Cn2ccnc2)=N\OCc2ccccc2)cc1,-,32 µg/mL

Repeating the first 7 entries:

SMILES | read by | result
Clc1ccc(/C(Cn2ccnc2)=N/OC/C=C/c2ccccc2)c(Cl)c1 | - | 1.5 µg/mL
Cc1ccc(CNC(=O)c2c(C)n([O-])c3ccccc3[n+]2=O)cc1 | - | >40 µg/mL
Nc1ccn([C@H]2O[C@@H](CO)C=C2F)c(=O)n1 | - | >100 µM
Cc1cn2c(C(=O)NCc3ccc(S(F)(F)(F)(F)F)cc3)c(C)nc2s1 | - | >32 µM
CC(O)c1cn([C@H]2C[C@H](O)[C@@H](CO)S2)c(=O)[nH]c1=O | - | >500 µM
Nc1nccc2c1ncn2[C@@H]1O[C@H](CSCCC(N)C(=O)O)C[C@H]1O | - | 400 µg/mL
Cc1ccn2c(C(=O)NCc3ccc(N4CCN(c5ccc(C(F)(F)F)cn5)CC4)c(F)c3)c(C)nc2c1 | - | >32 µM

Neighbouring rows are from separate reports. An empty or dashed field is not shown. CCn: concentration that lowers growth or viability of the cells by n%.